Source: article PMC3203990 (The FEBS journal, 2011)

System: O=[N+]([O-])c1ccc(OP(=O)(O)O)cc1
Assay: purified protein
Settings: 0.2 M sodium acetate, 1 mM MgCl2, pH 5.5, 25 °C

rP4 (recombinant Haemophilus influenzae e (P4) class C acid phosphatase) (Haemophilus influenzae Rd KW20)
Km: 0.12 ± 0.02 mM
kcat: 3.3 ± 0.1 s⁻¹
